# Source: PubChem BioAssay AID2253 (Southern Research Specialized Biocontainment Screening …, 2010)
# The entries are a selection whose mix differs from that of the whole data set. Results with a measured potency or affinity are listed apart. The source made the active and inactive calls. No rule for the calls is given here.
# Assay: THP-1 cell cytotoxicity, dose response, cytotoxicity control for Salmonella PhoP regulon inhibitors, S. typhimurium screen hits (AID 2253)
# Details: THP-1 viability, CellTiter-Glo luminescence, 72 h; at 50 µM (top of the series)
row,SMILES,viability
1,CC1=NCCc2c1[nH]c1ccccc21.O=[N+]([O-])c1cc([N+](=O)[O-])c(O)c([N+](=O)[O-])c1,inactive: 89.7%
